# Potato spindle tuber viroid, loop 6: variant abundance in plants

Source: Wu et al. 2024 (doi:10.1371/journal.ppat.1012142), supplementary data.

The pool varies loop 6 of the PSTVd intermediate strain in the pattern UNNNCGNNNG; wild type is UGACCGCGAG (upper and lower strand joined, each 5' to 3', the first 5 letters being the upper strand, closing pairs included).

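A pool of all variants was put on leaves of three Nicotiana benthamiana plants. Samples came from the inoculated region at 5 days, the leaf margin at 10 and upper systemic leaves at 12.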

Numbers give reads per thousand; 0 = not seen among the reads, higher = more abundant.
Each value is the mean of three plants.
"Pool" is the share in the plasmid pool used as inoculum, on the same scale.
The inoculated region was read from the minus strand, the other sites from the plus strand.
IR is the inoculated region, LM the leaf margin, Sys the systemic leaves.
Wild type was 20.7 per thousand in the pool and the most common sequence in every sample (inoculated region 195, 198, 203; leaf margin 629, 591, 734; systemic leaves 942, 870, 868).
With 36,220-57,551 reads a sample, very low values are single reads.
The authors trace changes outside the varied positions to PCR and sequencing errors or to mutation in the plant; presence does not show that a variant is infectious alone.

sequence	pool	IR	LM	Sys
UAGACGAUGG	0.183	0.0940	0.0169	0
UAAUCGGACG	0.183	0.652	0.0691	0.0457
UUUACGUAAG	0.131	0.114	0.00773	0.0263
UCGCCGAUCG	0.418	0.119	0	0
UAUCCGUCAG	0.327	0.0775	0.0169	0
UGCGCGACAG	0.196	0.0775	0	0
UAGCCGAACG	0.248	0.0766	0.0268	0
UAGGCGAAUG	0.261	0.0958	0	0
UUCCCAACCG	0.0131	0	0	0
UAUUCGCUAG	0.183	0.106	0.00773	0
UCAGCGCCCG	0.327	0.0894	0.00773	0
UGCGCGCACG	0.131	0.136	0	0
UGACCGGCGA	0.0261	0.0297	0.168	0.193
UGAGCGGUAG	0.314	0.714	0.0837	0.101
UCCCCGCCCG	0.379	0.131	0	0.00673
UUUUCGUGCG	0.118	0.0838	0	0
UAGUCGCCUG	0.157	0.0353	0	0
UGCCCGCUCG	0.222	0.0768	0.00773	0
UAGACGCGAG	0.144	0.114	0.161	0.0196
UAGUCGCGGG	0.353	0.0650	0.0155	0
UUGACGAGGG	0.209	0.102	0	0
UCCCCGCUAG	0.209	0.137	0.00773	0
UCGCCGGCUG	0.431	0.102	0	0
UGUACGAGCG	0.301	0.0947	0.00773	0
UGAGCGGGAC	0.0131	0.496	0.0815	0.0341
GUCGCGUUGG	0.0131	0	0	0
UCACCGUUGG	0.275	0.101	0.00773	0
UUCUCGAACG	0.314	0.0833	0.00773	0
UACGCGUCCG	0.183	0.107	0.00920	0
UAUACGCUUG	0.366	0.0768	0.00920	0
UGAUCGACGG	0.248	0.125	0.0169	0.00684
UCCGCGUUUG	0.222	0.0957	0.00773	0
UUUUCGAGAG	0.157	0.125	0.00920	0.00673
UCAUCGAAGG	0.0523	0.0936	0	0
UCACCGUGAG	0.235	0.726	0.0492	0
UAUACGAUGG	0.392	0.0951	0	0
UAACCGCUAG	0.0392	0.631	0.126	0.0264
UACACGUAGG	0.144	0.0960	0	0
UUGCCGGGUG	0.235	0.0714	0	0
UGGUCGUUGG	0.301	0.0881	0.00773	0
UACCCGAACG	0.288	0.0714	0	0
UCAUCGGAAG	0.0523	0.0835	0.00773	0
UAGGCGGUUG	0.235	0.0715	0	0
UGCACGUUAG	0.209	0.0900	0	0
UGGCCUAACG	0.0131	0	0	0
UGAUCGCUCG	0.523	0.0961	0.00773	0.00599
UUAACGCCUG	0.327	0.0827	0	0
UAGUCGUGUG	0.288	0.0829	0	0
UUAGCGCGAG	0.418	0.149	0.174	0.0341
UCGGCGGGGG	0.105	0.0890	0.0155	0
UCUCCGAGCG	0.131	0.0833	0	0
UCCGCUCGAG	0.0131	0.00579	0.00773	0
UGAACGCCUG	0.196	0.197	0.00773	0

Excerpt, the final 4 entries:

sequence,pool,IR,LM,Sys
UCGGCGGGGG,0.105,0.0890,0.0155,0
UCUCCGAGCG,0.131,0.0833,0,0
UCCGCUCGAG,0.0131,0.00579,0.00773,0
UGAACGCCUG,0.196,0.197,0.00773,0